Assay results from publication PMC9797896 (Medicinal Chemistry Research, 2022).

Tested on: SARS-CoV-2 (Omicron variant, B.1.1.529/BA.2 sublineage)
Format: cell-based

| SMILES | 100% CPE Inhibitory Concentration (CPEIC100) [µM] | selectivity index (SI) |
| --- | --- | --- |
| COc1nc(N)nc2c1ncn2[C@@H]1O[C@H](CO)[C@@H](O)[C@@H]1O [Nelarabine, nelarabine] | 4.14 ± 0.14 | – |
| O=c1[nH]cnc2c([C@@H]3N[C@H](CO)[C@@H](O)[C@H]3O)c[nH]c12 [Forodesine, forodesine] | – | > 142.9 |
